Results of unrelated studies side by side (data: NIAID ChemDB).

Shared fields: whole-cell or culture tests

Percent inhibition refers to the dose given; in toxicity tests it is the harm to the cells. MIC50, MIC90 and the like: level of inhibition, or share of isolates inhibited. Blank or dashed fields: not listed here. ECn: concentration that inhibits the pathogen or its effect by n%. Rows are shuffled and stem from different studies.

| compound | organism | read-out | cell line | dose | strain or isolate | read by | value |
|---|---|---|---|---|---|---|---|
| NC(=O)c1csc([C@@H]2O[C@H](CO)[C@@H](O)[C@H]2O)n1 | West Nile virus | EC50 | VERO |  | NEW YORK | cytopathic effect / visual reading | 308 µg/mL |
| Nc1nc2c(ncn2COC(CO)CO)c(=O)[nH]1 | Varicella zoster virus | EC50 | HEL |  | OKA | plaque count | 0.32 µg/mL |
| OC(Cn1cncn1)(Cn1cncn1)c1ccc(F)cc1F | Candida albicans | MIC |  |  | TW 07239 | broth dilution | 256 µg/mL |
| C[C@@H]1[C@H](O)[C@@H](C)/C=C/C=C/CC/C=C/C=C/C=C/C=C/C(O[C@H]2O[C@H](C)[C@@H](O)[C@H](N)[C@@H]2O)CC2O[C@](O)(CC(O)C(O)CCC(O)CC(O)CC(O)CC(=O)O[C@H]1C)CC(O)C2C(=O)O | Candida albicans | MFC100 |  |  | LM 42V | broth dilution | 64 µg/mL |
| CCO/N=C/c1ccc(OCCC2CCN(c3ccc(C)nn3)CC2)cc1 | Rhinovirus | EC50 | KB |  | CH47 (ICAM-1 receptor group 57) | neutral red | 0.109 µM |
| O=C(O)CP(=O)(O)O | Herpes simplex virus 1 | EC50 | HEL |  | KOS PMEA-resistant | cytopathic effect | 70.5 µg/mL |
| NC(=O)c1[nH]nc([C@@H]2O[C@H](CO)[C@@H](O)[C@H]2O)c1O | West Nile virus | EC50 | VERO |  | NEW YORK | cytopathic effect | 1.8 µg/mL |
| Cc1c(N)nc([C@H](CC(N)=O)NC[C@H](N)C(N)=O)nc1C(=O)N[C@H](C(=O)N[C@H](C)[C@@H](O)[C@H](C)C(=O)N[C@H](C(=O)NCCc1nc(-c2nc(C(=O)NCCC[S+](C)C)cs2)cs1)[C@@H](C)O)C(O[C@@H]1O[C@@H](CO)[C@@H](O)[C@H](O)[C@@H]1O[C@H]1O[C@H](CO)[C@@H](O)[C@H](OC(N)=O)[C@@H]1O)c1cnc[nH]1 | Herpes simplex virus 1 | EC50 | HeLa |  | KOS | cytopathic effect | >200 µg/mL |
| Nc1nc2c(ncn2COCOCP(=O)(O)O)c(=O)[nH]1 | Parainfluenza virus | EC50 |  |  | SF (TYPE 5) | neutral red | >100 µg/mL |
| O=[N+]([O-])c1c(Cl)cccc1-c1c[nH]cc1Cl | Herpes simplex virus 1 | EC50 | HeLa |  | KOS | cytopathic effect | >200 µg/mL |
| Nc1ncnc2c1ncn2C[C@@H](CO)OCP(=O)(O)O | Herpes simplex virus 1 | EC50 | HEL |  | KOS HPMPC-resistant | cytopathic effect | 1.7 µg/mL |
| OC[C@@H](O)C(O)[C@@H](O)CO | Herpes simplex virus 1 | EC50 | HeLa |  | KOS | cytopathic effect | >200 µg/mL |
| O=c1[nH]c(=O)n([C@@H]2O[C@H](CO)[C@@H](O)[C@H]2O)cc1F | West Nile virus | EC50 | VERO |  | NEW YORK | cytopathic effect | >0.82 µg/mL |
| Nc1ncnc2c1ncn2[C@@H]1O[C@H](CO)[C@@H](O)[C@@H]1O | Herpes simplex virus 1 | EC50 | HEL |  | KOS BVDU-resistant | cytopathic effect | 13.1 µg/mL |
| C[C@@H](O)[C@H]1C(=O)N2C(C(=O)O)=C(SCCN=CN)C[C@H]12 | Staphylococcus aureus | MIC50 |  |  | 25 strains (ofloxacin-resistant) |  | 64 µg/mL |
| O=c1[nH]c(=O)n([C@@H]2O[C@H](CO)[C@@H](O)[C@@H]2O)cc1/C=C/Br | Varicella zoster virus | EC50 | HEL |  | PFA-resistant/B | plaque count | 0.000095 µg/mL |
| CCCCCCCCCC(=O)N[C@H]1[C@H](Oc2c3cc4cc2Oc2ccc(cc2Cl)[C@@H](O[C@@H]2O[C@H](CO)[C@@H](O)[C@H](O)[C@H]2NC(C)=O)[C@@H]2NC(=O)[C@H](NC(=O)[C@@H]4NC(=O)[C@H]4NC(=O)[C@@H](Cc5ccc(c(Cl)c5)O3)NC(=O)[C@H](N)c3ccc(O)c(c3)Oc3cc(O)cc4c3)c3ccc(O)c(c3)-c3c(O[C@H]4O[C@H](CO)[C@@H](O)[C@H](O)[C@@H]4O)cc(O)cc3[C@H](C(=O)O)NC2=O)O[C@H](CO)[C@@H](O)[C@@H]1O | Staphylococcus aureus | MIC90 |  |  | 24 strains (ofloxacin-susceptible) |  | 2 µg/mL |
| Nc1ncnc2c1ncn2C[C@H](CO)OCP(=O)(O)O | Adenovirus | EC90 |  |  | TRIM (TYPE 8) | virus yield | 2 µg/mL |
| N#Cc1c(Br)n([C@@H]2O[C@H](CO)[C@@H](O)[C@H]2O)c2ncnc(N)c12 | West Nile virus | EC50 | VERO |  | NEW YORK | cytopathic effect / visual reading | >10 µg/mL |
| O=C(O)P(=O)(O)O | Varicella zoster virus | EC50 | HEL |  | BVaraU-resistant | plaque count | 12.6 µg/mL |
| Nc1ccc(S(=O)(=O)c2ccc(N)cc2)cc1 | Mycobacterium ulcerans | MIC |  |  | Isolate 94-886 |  | 4 µg/mL |
| COc1c(C)c2c(c(O)c1C/C=C(\C)CCC(=O)O)C(=O)OC2 | West Nile virus | EC50 | MA-104 |  | NEW YORK | virus yield | <0.3 µg/mL |
| NC(=O)c1ncn([C@@H]2O[C@H](CO)[C@@H](O)[C@H]2O)n1 | Respiratory syncytial virus | inhibition | HEP-2 | 10 µg/mL | LONG | plaque count | 97% |
| CC(=O)NC[C@H]1CN(c2ccc(N3CCOCC3)c(F)c2)C(=O)O1 | Streptococcus pneumoniae | MIC90 |  |  | Penicillin-susceptible |  | 1 µg/mL |
| Nc1ncnc2c1ncn2C[C@@H](CO)OCP(=O)(O)O | Varicella zoster virus | EC50 | HEL |  | PMEDAP-resistant | plaque count | 0.014 µg/mL |
| Nc1ccn([C@@H]2C=C(CO)[C@@H](O)[C@@H]2O)c(=O)n1 | West Nile virus | EC50 | VERO |  | NEW YORK | cytopathic effect / visual reading | 0.9 µg/mL |
| COc1c(N2C[C@@H]3CCCN[C@@H]3C2)c(F)cc2c(=O)c(C(=O)O)cn(C3CC3)c12 | Haemophilus influenzae | MIC90 |  |  | 38 strains (ampicillin-susceptible) |  | 0.03 µg/mL |
| COC(=O)[C@H]1[C@@H]2C[C@@H](O[C@@H]3O[C@H](C)[C@@H](O)[C@H](N)[C@@H]3O)/C=C/C=C/C=C/C=C/C=C/C=C/C=C/[C@H](C)[C@@H](O)[C@H](C)[C@H](C)OC(=O)C[C@H](O)C[C@H](O)[C@@H](O)CC[C@H](O)C[C@H](O)C[C@](O)(C[C@@H]1O)O2 | Vesicular stomatitis virus | inhibition | L929 | 50 µg/mL |  | virus yield | 0% |
| CC[C@H](C)[C@H]1NC(=O)[C@@H](NC(=O)[C@@H](CC(C)C)NC)[C@@H](C)OC(=O)[C@H](Cc2ccc(OC)cc2)N(C)C(=O)[C@@H]2CCCN2C(=O)[C@H](CC(C)C)NC(=O)[C@@H](C)C(=O)[C@H](C(C)C)OC(=O)C[C@@H]1O | Dengue virus | EC50 | LLC-MK2 |  | TYPE 3 | plaque count | >2.5 µg/mL |
| Cc1cn([C@@H]2O[C@H](CO)[C@@H](O)[C@@H]2O)c(=O)[nH]c1=O | Herpes simplex virus 1 | EC50 | HEL |  | KOS HPMPA-resistant | cytopathic effect | 0.076 µg/mL |
| C=C1O[C@@](CO)(n2cnc3c(N)ncnc32)[C@H](O)[C@@H]1O | Herpes simplex virus 1 | EC50 | HeLa |  | KOS | cytopathic effect | >100 µg/mL |
| Nc1nccc2c1ncn2[C@@H]1C[C@H](CO)[C@@H](O)[C@H]1O | Vesicular stomatitis virus | EC50 | HeLa |  |  | cytopathic effect | 0.3 µg/mL |
| N=C(N)c1ncn([C@@H]2O[C@H](CO)[C@@H](O)[C@H]2O)n1 | Influenza A virus (H1N1) | EC50 | MDCK |  | A/Beijing/262/95 | neutral red | 32 µg/mL |
| Cc1c(N2C[C@@H](F)[C@@H](C3(N)CC3)C2)c(F)c(N)c2c(=O)c(C(=O)O)cn([C@@H]3C[C@@H]3F)c12 | Staphylococcus aureus | MIC90 |  |  | 25 strains (ofloxacin-resistant) |  | 0.25 µg/mL |
| NC(=O)c1c[se]c([C@@H]2O[C@H](CO)[C@@H](O)[C@H]2O)n1 | West Nile virus | EC50 | VERO |  | NEW YORK | cytopathic effect | 6.2 µg/mL |
| C[C@H]1NCc2cc(-c3ccc4c(=O)c(C(=O)O)cn(C5CC5)c4c3OC(F)F)ccc21 | Staphylococcus aureus | MIC50 |  |  | 25 strains (methicillin-susceptible) |  | 0.03 µg/mL |
| O=c1[nH]c(=O)n([C@H]2C[C@H](O)[C@@H](CO)O2)cc1/C=C/Br | Herpes simplex virus 1 | EC50 | HEL |  | KOS BVDU-resistant | cytopathic effect | 44 µg/mL |
| NC(=O)c1csc([C@@H]2O[C@H](COP(=O)(O)CP(=O)(O)OC[C@H]3O[C@@H](n4cnc5c(N)ncnc54)[C@H](O)[C@@H]3O)[C@@H](O)[C@H]2O)n1 | West Nile virus | EC50 | VERO |  | Uganda | cytopathic effect | 53 µg/mL |
| O=c1[nH]cnc2[nH]ncc12 | Herpes simplex virus 1 | EC50 | HeLa |  | KOS | cytopathic effect | >200 µg/mL |
| Nc1ncnc2c1ncn2C[C@@H](CO)OCP(=O)(O)O | Adenovirus | EC90 |  |  | TRIM (TYPE 8) | virus yield | 8 µg/mL |
| CC1=C(/C=C/C(C)=C/C=C/C(C)=C/C=C/C=C(C)/C=C/C=C(C)/C=C/C2=C(C)CCCC2(C)C)C(C)(C)CCC1 | Herpes simplex virus 1 | EC50 | HeLa |  | KOS | cytopathic effect | >200 µg/mL |
| Cc1onc(-c2ccccc2)c1C(=O)N[C@@H]1C(=O)N2[C@@H]1SC(C)(C)[C@@H]2C(=O)O | Staphylococcus aureus | MIC90 |  |  | 25 strains (ofloxacin-resistant) |  | >128 µg/mL |
| c1cc(CN2CCCNCCNCCCNCC2)ccc1CN1CCCNCCNCCCNCC1 | HIV-1 | inhibition | PBMC | 0.5 µM | SW7 CLADE C X4 | p24 | 100% |
| COc1cc(Cc2cnc(N)nc2N)cc(OC)c1Br | Mycobacterium ulcerans | MIC |  |  | Isolate 94-886 |  | 16 µg/mL |
| CO[C@@H]1[C@@H](OC(N)=O)[C@@H](O)[C@H](Oc2ccc3c(O)c(NC(=O)c4ccc(O)c(CC=C(C)C)c4)c(=O)oc3c2C)OC1(C)C | Epstein-Barr virus | EC50 | P3HR-1 |  |  | PCR | 70.7 µM |
| CC(=O)OC[C@H]1O[C@@H](n2ncc(=O)[nH]c2=O)[C@H](OC(C)=O)[C@@H]1OC(C)=O | West Nile virus | EC50 | VERO |  | Uganda | cytopathic effect | 0.8 µg/mL |
| C#CC[C@@H](C(=O)N[C@H](/C=C/C(=O)OCC)C[C@@H]1CCNC1=O)n1cccc(NC(=O)c2cc(C)on2)c1=O | Rhinovirus | EC50 | H1-HELA |  | Serotype 73 | cytopathic effect / XTT | 0.059 µM |
| CC1(C)[C@@H](O[C@H]2O[C@H](C(=O)O)[C@@H](O)[C@H](O)[C@H]2O[C@@H]2O[C@H](C(=O)O)[C@@H](O)[C@H](O)[C@H]2O)CC[C@]2(C)[C@H]3C(=O)C=C4[C@@H]5C[C@@](C)(C(=O)O)CC[C@]5(C)CC[C@@]4(C)[C@]3(C)CC[C@@H]12 | Dengue virus | EC50 | VERO |  | Type 1 (Hawaii) | virus yield | <316 µg/mL |

Repeating the final 3 entries:

compound | organism | read-out | cell line | dose | strain or isolate | read by | value
CC(=O)OC[C@H]1O[C@@H](n2ncc(=O)[nH]c2=O)[C@H](OC(C)=O)[C@@H]1OC(C)=O | West Nile virus | EC50 | VERO |  | Uganda | cytopathic effect | 0.8 µg/mL
C#CC[C@@H](C(=O)N[C@H](/C=C/C(=O)OCC)C[C@@H]1CCNC1=O)n1cccc(NC(=O)c2cc(C)on2)c1=O | Rhinovirus | EC50 | H1-HELA |  | Serotype 73 | cytopathic effect / XTT | 0.059 µM
CC1(C)[C@@H](O[C@H]2O[C@H](C(=O)O)[C@@H](O)[C@H](O)[C@H]2O[C@@H]2O[C@H](C(=O)O)[C@@H](O)[C@H](O)[C@H]2O)CC[C@]2(C)[C@H]3C(=O)C=C4[C@@H]5C[C@@](C)(C(=O)O)CC[C@]5(C)CC[C@@]4(C)[C@]3(C)CC[C@@H]12 | Dengue virus | EC50 | VERO |  | Type 1 (Hawaii) | virus yield | <316 µg/mL